Anti-infective test results gathered from many reports (values: NIAID ChemDB through PubChem).

Shared fields: whole-cell or culture tests; species: Mycobacterium tuberculosis

ECn is the concentration giving n% inhibition of infection, replication or growth.

compound	read-out	conditions	method	changes	tested at	cell line	strain or isolate	value
O=C1c2ccccc2C(=O)c2cc(C[P+](c3ccccc3)(c3ccccc3)c3ccccc3)ccc21	MIC		resazurin				H37Rv	2 µg/mL
O=C(Cn1cc(I)c(C(=O)NCC(O)CO)n1)NCC(O)CO	MIC bound		BACTEC				H37Rv	>12.5 µg/mL
Cc1cn2c(C(=O)NCc3ccc(N4CCOCC4)cc3)c(C)nc2s1	MIC		luminescence				H37Rv	57 µM
COC1=C[C@@H]2C3=C([C@@H]2C1=O)[C@@H](NC(C)=O)CCc1cc(OC)c(OC)c(OC)c13	MIC		BACTEC				H37Rv	≥12.8 µg/mL
O=C(Cc1nn(Cc2ccc(Br)cc2F)c(=O)c2ccccc12)N/N=C/c1ccccc1[N+](=O)[O-]	MIC						Multidrug-resistant (MDR)	0.18 µM
COc1cc2c(cc1Cl)n([O-])c(C#N)c(N1CCN(c3ccc([N+](=O)[O-])cc3)CC1)[n+]2=O	inhibition				6.25 µg/mL		H37Rv	100%
O=C(Cc1cccs1)N/N=C/c1cccc(Cl)c1	MIC		resazurin				H37Rv (ATCC 27294)	>100 µg/mL
[O-][n+]1c2ccccc2nc2ccccc21	MIC bound		BACTEC				H37Rv	≤12.5 µg/mL
Brc1cncnc1-c1ccc(-c2ccccc2)s1	MIC		broth dilution				H37Rv	1.5 µg/mL
CO[C@@H]1C=C[C@@]23c4cc5c(cc4[C@H](O)O[C@H]2CN(C)[C@H]3C1)OCO5	MIC		BACTEC				H37Rv	≥12.8 µg/mL
Cc1cn2c(C(=O)NCc3ccc(C(F)(F)F)cc3)c(C)nc2s1	MIC		resazurin / fluorescence	QCrb2 M342T			H37Rv	4.7 µM
O=C(OCCN=c1c2ccccc2ccc2ccccc12)c1cc([N+](=O)[O-])cc([N+](=O)[O-])c1	inhibition		BACTEC		12.5 µg/mL		H37Rv	0%
O=c1[nH]c2ccc(Cl)cc2c(O)c1N=Nc1ccc(Cl)cc1	MIC		resazurin				H37Rv	<6.25 µg/mL
CO[C@H]1/C=C/O[C@@]2(C)Oc3c(C)c(O)c4c(O)c(c(/C=N/N5CCN(C)CC5)c(O)c4c3C2=O)NC(=O)/C(C)=C\C=C\[C@H](C)[C@H](O)[C@@H](C)[C@@H](O)[C@@H](C)[C@H](OC(C)=O)[C@@H]1C	MIC							0.04 µg/mL
COc1cccc(/C=C(\C#N)n2nnc3ccccc32)c1	MIC90						ATCC 27294	>100 µM
CN1c2ccccc2SC12C(=O)N(c1ccccc1)C(=O)N2c1ccccc1	inhibition		BACTEC		12.8 µg/mL		H37Rv	-4%
O=C(Nc1ccc(C(F)(F)F)cc1)c1cc(Cl)ccc1OP(=O)(c1ccccc1)c1ccccc1	MIC	21 d					Praha 1	1 µM
COc1cccc(CNC(=O)c2c(C)nc3sc(C)cn23)c1	MIC		luminescence				H37Rv	>100 µM
O=C(Cc1cccs1)N/N=C/c1ccccc1O	MIC		resazurin				H37Rv (ATCC 27294)	404.7 µM
Cc1ccc2nc(Cl)c(C3C(C#N)=C(N)N(Nc4ccccc4)C4=C3C(=O)CC(C)(C)C4)cc2c1	MIC		agar				H37Rv	12 µg/mL
COc1ccc(N=Nc2c(O)c3c(ccc4ccccc43)oc2=O)cc1	MIC		resazurin				H37Rv	<6.25 µg/mL
O=C(Cc1nn(Cc2ccc(Br)cc2F)c(=O)c2ccccc12)N/N=C/c1ccc(Br)cc1	MIC						Multidrug-resistant (MDR)	0.72 µM
O=C(Nc1ccc(Br)cc1)c1cc(Cl)ccc1OP(=O)(Oc1ccccc1)Oc1ccccc1	MIC	7 d					My 331/88	4 µM
CC1(C)CC(=O)C2=C(C1)N(Nc1ccc(F)cc1)C(N)=C(C#N)C2c1cc2ccccc2nc1Cl	MIC		agar				H37Rv	62 µg/mL
CN(C)CCN1c2ccccc2Oc2ccccc21.Cl	inhibition		BACTEC		12.5 µg/mL		H37Rv	47%
CCC1CCC2CN(/N=C/c3c4c(O)c5c(O)c(C)c6c(c5c3O)C(=O)[C@@](C)(O/C=C/[C@H](OC)[C@@H](C)[C@@H](OC(C)=O)[C@H](C)[C@H](O)[C@H](C)[C@@H](O)[C@@H](C)/C=C/C=C(/C)C(=O)N4)O6)CCN2C1	MIC							0.03 µg/mL
CO/N=C(\C)c1cccc(F)c1NS(=O)(=O)c1nc2c(F)cnc(OC)n2n1	MIC50		visual reading	INH RIF resistant			X59	1 µM
N#Cc1c(N2CCN(c3ccc([N+](=O)[O-])cc3)CC2)[n+](=O)c2ccc(Cl)cc2n1[O-]	inhibition				6.25 µg/mL		H37Rv	100%
N#C/C(=C\c1cccc([N+](=O)[O-])c1)n1nnc2ccccc21	MIC90						ATCC 27294	>100 µM
O=C1c2cc(Cl)ccc2OP(=O)(c2ccccc2)N1c1ccc(C(F)(F)F)cc1	MIC	21 d					Praha 131	1 µM
O=[N+]([O-])c1ncn(C2OC(CO)C(O)C2O)c1Br	MIC bound		BACTEC				H37Rv	>12.5 µg/mL
NC1[C@H]2CN(c3nc4c(cc3F)c(=O)c(C(=O)O)cn4-c3ccc(F)cc3F)C[C@@H]12	Mean MIC						250 isolates	30.7 µg/mL
O=C(Nc1ccc(Cl)c(Cl)c1)c1cc(Cl)ccc1OP(=O)(c1ccccc1)c1ccccc1	MIC	7 d					My 331/88	2 µM
C[C@H]1COc2c(N3CCN(C)CC3)c(F)cc3c(=O)c(C(=O)O)cn1c23	MIC90						44 isolates (resistant)	1 µg/mL
Cc1c(NC=O)c(=O)n(-c2ccccc2)n1C	MIC bound		BACTEC				H37Rv	>12.5 µg/mL
CCCCOc1ccc(NC(=S)Nc2ccc(OCCN(CC)CC)cc2)cc1	MIC						H37RV #164	16.6 µg/mL
Cc1cc2c(cc1C)[n+]([O-])c(C#N)c(N)[n+]2[O-]	EC50						H37Rv	<6.25 µg/mL
COc1ccc(/C=N/NC(=O)Cc2cccs2)c(O)c1	MIC		resazurin				H37Rv (ATCC 27294)	172.2 µM
COc1ccc2nc(Cl)c(C3C(C#N)=C(N)N(Nc4ccc(Br)cc4)C4=C3C(=O)CC(C)(C)C4)cc2c1	MIC		agar				H37Rv	17 µg/mL
O=C(Cc1nn(Cc2ccc(Br)cc2F)c(=O)c2ccccc12)N/N=C/c1cccc(F)c1	MIC						Multidrug-resistant (MDR)	0.81 µM
O=C(Nc1ccc(C2=NCC(O)CN2)cc1)c1ccc(C(=O)Nc2ccc(C3=NCC(O)CN3)cc2)cc1	MIC bound		BACTEC				H37Rv	≤12.5 µg/mL
NC(=S)c1cnc(C(=O)c2ccc(O)cc2)cn1	inhibition		resazurin		6.25 µg/mL		H37Rv	21%
Cc1cn2c(C(=O)NCc3ccc(N4CCN(c5ccc(C(F)(F)F)cn5)CC4)c(F)c3)c(C)nc2s1	MIC		resazurin / fluorescence	QcrB5 M342I			H37Rv	<0.024 µM
O=C1c2cc(Br)ccc2OP(=O)(c2ccccc2)N1c1ccc(C(F)(F)F)cc1	MIC	21 d					Praha 131	1 µM
O=C(c1ccc(Br)cc1)c1cnc2nc(-c3ccccc3)c(-c3ccccc3)nn12	MIC					VERO	H37Rv	12.5 µg/mL
N#C/C(=C\c1ccccc1F)n1nnc2ccccc21	MIC90						ATCC 27294	89.4 µM
CCOC(=O)c1cn(CC)c2c(cc([N+](=O)[O-])c3cccnc32)c1=O	MIC90			gyrA mutation A90V			BCG	2.5 µM
CC(=O)NC[C@H]1CN(c2ccc(N3CCOCC3)c(F)c2)C(=O)O1	MIC50						10 isolates (isoniazid rifampin-resistant)	0.5 µg/mL
O=C(Cc1cccs1)N/N=C/c1ccc(F)cc1	MIC		resazurin				H37Rv (ATCC 27294)	>100 µg/mL
O=C1Nc2nc3ccccc3n2N=C2CCCC12	inhibition		BACTEC		12.5 µg/mL		H37Rv	0%
N#Cc1cnc(C(=O)c2ccccc2)cn1	EC50		resazurin				H37Rv	>6.25 µg/mL
COc1cnc2ccc(=O)n(CCN3CCC(NCc4cc(Cl)c(Cl)cn4)CC3)c2c1	MIC		resazurin				Canettii	0.04 µg/mL
Cc1ccn2nc(S(=O)(=O)Nc3c(Br)ccc4cccnc34)nc2n1	MIC50		visual reading	INH RIF resistant			X59	0.5 µM
COc1cc2c(cc1Cl)[n+](=O)c(C#N)c(Cl)n2[O-]	EC50						H37Rv	<6.25 µg/mL
O=c1[nH]c2ccccc2c(O)c1N=Nc1ccccc1	MIC		resazurin				H37Rv	<6.25 µg/mL
O=C(Cc1cccs1)N/N=C/c1cccc(O)c1	MIC		resazurin				H37Rv (ATCC 27294)	>100 µg/mL
COc1ccc2c(c1)[n+]([O-])c(C#N)c(N)[n+]2[O-]	EC50						H37Rv	<6.25 µg/mL
O=C(Cc1nn(Cc2ccc(Br)cc2F)c(=O)c2ccccc12)N/N=C/c1c(Cl)cccc1Cl	MIC						Multidrug-resistant (MDR)	2.92 µM
N#Cc1cnc(C(=O)c2ccc(Cl)cc2)cn1	EC50		resazurin				H37Rv	>6.25 µg/mL
O=C(Nc1ccc(Cl)cc1)c1cc(Cl)ccc1OP(=O)(OCc1ccccc1)OCc1ccccc1	MIC	7 d					My 331/88	16 µM
CCOC(=O)c1cn(C)c2c(cc([N+](=O)[O-])c3cccnc32)c1=O	MIC90						BCG	2.35 µM
Cn1c(=O)c(N=Nc2ccccc2[N+](=O)[O-])c(O)c2ccccc21	MIC		resazurin				H37Rv	<6.25 µg/mL
N#Cc1c(N2CCN(c3ccc([N+](=O)[O-])cc3)CC2)[n+](=O)c2ccc(-c3ccc([N+](=O)[O-])cc3)cc2n1[O-]	MIC						H37Rv	0.78 µg/mL
CC1(C)CC(=O)C2=C(C1)N(Nc1ccc(Cl)cc1)C(N)=C(C#N)C2c1cc2ccccc2nc1Cl	MIC		agar				H37Rv	22 µg/mL
CC[C@@]1(OC(=O)CCC(=O)O)C(=O)OCc2c1cc1n(c2=O)Cc2cc3ccccc3nc2-1	MIC bound		resazurin				H37Rv	>6.25 µg/mL
CC1COc2c(N3CCN(C)CC3)c(F)cc3c(=O)c(C(=O)O)cn1c23	MIC		resazurin				ATCC 27294	0.6 µM
O=C1NN=C(c2ccccc2)SC1c1ccccc1	MIC bound		resazurin				H37Rv	>6.25 µg/mL
COc1cc2c(cc1Cl)[n+]([O-])c(C#N)c(N)[n+]2[O-]	MIC						H37Rv	3.13 µg/mL
CC(=O)NCC1CN(c2ccc(C(C)=O)cc2)C(=O)O1	MIC						H37RV (INH-R)	0.97 µg/mL
O=C(O)c1cnc(C(=O)c2ccccc2)cn1	EC50		resazurin				H37Rv	>6.25 µg/mL
N#C/C(=C/c1ccccc1Cl)n1nnc2ccccc21	MIC90						ATCC 27294	28.9 µM
Cc1cn2c(C(=O)NCc3ccc(N4CCOCC4)c(F)c3)c(C)nc2s1	MIC		resazurin / fluorescence	QcrB4 A396T			H37Rv	0.15 µM
CCN(CC)CC(O)CNc1ccc(C)c2sc3ccccc3c(=O)c12	MIC bound		BACTEC				H37Rv	≤12.5 µg/mL
O=C(Cc1cccs1)N/N=C/c1ccc(O)c(Cl)c1	MIC		resazurin				H37Rv (ATCC 27294)	169.6 µM
NC(=S)c1cnc(C(=O)c2ccc(Cl)cc2)cn1	inhibition		resazurin		6.25 µg/mL		H37Rv	90%
CCC(C)C(NC(=O)C1N=C(c2csc(C(O)Cc3ccccc3)n2)OC1C)C(=O)OC	MIC bound		BACTEC				H37Rv	>12.5 µg/mL
N#Cc1nc2ccccc2nc1Cl	inhibition				6.25 µg/mL		H37Rv	94%
CCN(CC)CCN1c2ccc(OC)cc2Sc2ccc3ccccc3c21	MIC		BACTEC				H37Rv	6.25 µg/mL
N#C/C(=C/c1cccc(Cl)c1)n1nnc2ccccc21	MIC50						ATCC 27294	51.2 µM
Nc1[nH][nH]c(=O)c1N=O	MIC bound		BACTEC				H37Rv	>12.5 µg/mL
C(=C\c1cncnc1-c1ccc(-c2cccs2)s1)/c1ccc(-c2ccccc2)cc1	MIC		broth dilution				H37Rv	1.5 µg/mL
O=C1OC(CO)C(OC2OC(CO)C(O)C(O)C2O)C(O)C1O	MIC bound		BACTEC				H37Rv	>12.5 µg/mL
CCN(CC)CCOc1ccc(NC(=S)Nc2ccc(OCC(C)C)cc2)cc1	MIC						76	31.3 µg/mL
Nc1ccc(-c2csc(-c3ccccc3)n2)c(Cl)c1	MIC		BACTEC				H37Rv	>12.5 µg/mL
CCOc1ccc(NC(=S)Nc2ccc(OCC(C)C)cc2)cc1	MIC						76	16.6 µg/mL

For reference, 10 entries again:

compound | read-out | conditions | method | changes | tested at | cell line | strain or isolate | value
O=C(Cc1cccs1)N/N=C/c1ccc(F)cc1 | MIC |  | resazurin |  |  |  | H37Rv (ATCC 27294) | >100 µg/mL
Cn1c(=O)c(N=Nc2ccccc2[N+](=O)[O-])c(O)c2ccccc21 | MIC |  | resazurin |  |  |  | H37Rv | <6.25 µg/mL
CN1c2ccccc2SC12C(=O)N(c1ccccc1)C(=O)N2c1ccccc1 | inhibition |  | BACTEC |  | 12.8 µg/mL |  | H37Rv | -4%
NC(=S)c1cnc(C(=O)c2ccc(O)cc2)cn1 | inhibition |  | resazurin |  | 6.25 µg/mL |  | H37Rv | 21%
CCOc1ccc(NC(=S)Nc2ccc(OCC(C)C)cc2)cc1 | MIC |  |  |  |  |  | 76 | 16.6 µg/mL
NC(=S)c1cnc(C(=O)c2ccc(Cl)cc2)cn1 | inhibition |  | resazurin |  | 6.25 µg/mL |  | H37Rv | 90%
O=C1Nc2nc3ccccc3n2N=C2CCCC12 | inhibition |  | BACTEC |  | 12.5 µg/mL |  | H37Rv | 0%
CCN(CC)CC(O)CNc1ccc(C)c2sc3ccccc3c(=O)c12 | MIC bound |  | BACTEC |  |  |  | H37Rv | ≤12.5 µg/mL
CCN(CC)CCN1c2ccc(OC)cc2Sc2ccc3ccccc3c21 | MIC |  | BACTEC |  |  |  | H37Rv | 6.25 µg/mL
O=C(Cc1nn(Cc2ccc(Br)cc2F)c(=O)c2ccccc12)N/N=C/c1cccc(F)c1 | MIC |  |  |  |  |  | Multidrug-resistant (MDR) | 0.81 µM

MIC bound: limit read from a one-dose screen. Percent inhibition refers to the dose given; in toxicity tests it is the harm to the cells. Rows are shuffled and stem from different studies. Blank or dashed fields: not listed here. MIC50, MIC90 and the like: level of inhibition, or share of isolates inhibited.